PubChem BioAssay AID1259414 | Drosophila RNAi Screening Center – 2018

- Assay: 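Genome-wide screen for host control of endosymbiont load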 (primary screen)
- System: Drosophila JW18 cells infected with Wolbachia
- Knock-down reagent: long dsRNA against Drosophila genes, 0.25 µg dsRNA per well of a 384-well plate
- Timing: 5 days
- Challenge: cells persistently infected with Wolbachia before knock-down; no added drug
- Read-out: 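Automated imaging of bacterial rRNA staining divided by host cell count, reported as plate-normalised robust z-score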
- Direction: Wolbachia per cell robust z: higher = more Wolbachia per host cell than the plate typical
- Rule for the call: 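Hit when robust z is 1.5 or more, or -1.5 or less, in at least two of three replicates; excludes dsRNAs with several or no targets, genes not expressed in JW18 and well A1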
The screen tested about 24,000 reagents; this is an unselected part of those with a known target gene and a result. Of all reagents, about 1,210 (5%) got an active call. 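Inactive calls also include excluded dsRNAs with several or no targets, genes unexpressed in JW18, and well A1, regardless of score.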 A number with no mark means an inactive call. Reagents against one gene are numbered here. Names joined by + are all predicted targets of the reagent.

The opening 8 records, to show the layout:
| target gene | reagent | Wolbachia per cell robust z, rep 1 | Wolbachia per cell robust z, rep 2 | Wolbachia per cell robust z, rep 3 |
| --- | --- | --- | --- | --- |
| pst (pastrel) | 1 | 1.15 | -5.62 | 0.661 |
| CG43394 | 1 | -0.806 | -0.553 | -1.89 |
| CG43394 | 2 | -4.17 (active) | -3.34 | -2.68 |
| CG43394 | 3 | 0.978 | -0.64 | -0.897 |
| sif (still life) | 1 | -0.389 | -0.467 | -0.596 |
| sif (still life) | 2 | -0.283 | -0.302 | 0.518 |
| sif (still life) | 3 | 0.647 | 0.469 | -0.778 |
| sif (still life) | 4 | 0.479 | -0.221 | -0.878 |

The listing, repeating the preview:
| target gene | reagent | Wolbachia per cell robust z, rep 1 | Wolbachia per cell robust z, rep 2 | Wolbachia per cell robust z, rep 3 |
| --- | --- | --- | --- | --- |
| pst (pastrel) | 1 | 1.15 | -5.62 | 0.661 |
| CG43394 | 1 | -0.806 | -0.553 | -1.89 |
| CG43394 | 2 | -4.17 (active) | -3.34 | -2.68 |
| CG43394 | 3 | 0.978 | -0.64 | -0.897 |
| sif (still life) | 1 | -0.389 | -0.467 | -0.596 |
| sif (still life) | 2 | -0.283 | -0.302 | 0.518 |
| sif (still life) | 3 | 0.647 | 0.469 | -0.778 |
| sif (still life) | 4 | 0.479 | -0.221 | -0.878 |
| sif (still life) | 5 | -9.16 | -0.644 | -0.187 |
| CG4271 | 1 | 1.46 | -7.6 | 2.04 |
| Naa20A (N(alpha)-acetyltransferase 20 A) | 1 | 0.03 | -0.962 | -0.749 |
| CG8299 | 1 | 0.703 | 1.16 | 0.247 |
| CG8299 | 2 | -1.37 | -0.77 | -0.923 |
| Dhdds (Dehydrodolichyl diphosphate synthase subunit) | 1 | -0.0383 | 0.00011 | 0.526 |
| Dhdds (Dehydrodolichyl diphosphate synthase subunit) | 2 | 0.551 | 1.31 | -0.106 |
| mus312 + CG42307 | 1 | -0.581 | -1.21 | -0.111 |
| CG5078 | 1 | -0.477 | -1.77 | 0.194 |
| CG45049 | 1 | 0.116 (active) | -1.52 | -5.78 |
| CG45049 | 2 | 0.643 | -0.274 | 1.22 |
| Menl-1 + Menl-2 | 1 | -0.171 | 0.836 | 0.423 |
| mr (morula) | 1 | 0.57 | 0.696 | -0.078 |
| mr (morula) | 2 | 0.317 | -1.21 | 0.147 |
| mr (morula) | 3 | 0.915 | 1.07 | 0.487 |
| bun (bunched) | 1 | -0.9 | -1.36 | -1.01 |
| bun (bunched) | 2 | -0.871 | 0.263 | -0.971 |
| bun (bunched) | 3 | -2.18 | -0.499 | 0.263 |
| CG3651 | 1 | -0.111 | 0.128 | 0.638 |
| CG31710 | 1 | 0.61 | 0.229 | -0.0753 |
| CG31710 | 2 | 0.292 | 0.69 | -0.669 |
| CG31710 | 3 | -1.33 | 0.484 | 1.21 |
| CG14708 | 1 | -0.0946 | -0.183 | 0.365 |
| CG14708 | 2 | -0.76 | 0.502 | 0.309 |
| CG12948 | 1 | -1.8 | -0.0401 | -0.229 |
| CG12948 | 2 | -0.717 | 1.61 | 0.42 |
| Wee1 (Wee1 kinase) | 1 | 0.511 | -0.768 | 0.92 |
| Wee1 (Wee1 kinase) | 2 | 0.598 | -0.349 | -0.16 |
| His4:CG33881 + His4:CG33897 + His4:CG33887 + 20 more | 1 | 0.404 | 0.639 | 0.488 |
| und (uninitiated) | 1 | -1.51 | -7.61 | 0.577 |
| CG32588 | 1 | -1.37 | -0.908 | -0.255 |
| CG14196 | 1 | 1.53 | -0.554 | 0.332 |
| CG14196 | 2 | 0.607 | -0.14 | -0.465 |
| Set | 1 | -3.86 | -0.673 | -0.418 |
| CG13155 | 1 | 1.01 | 0.736 | 0.291 |
| CG12849 | 1 | 0.464 | -0.847 | 0.185 |
| Fum4 (Fumarase 4) | 1 | 0.438 | -0.164 | -0.0121 |
| Fum4 (Fumarase 4) | 2 | 1.33 | -0.579 | 1.69 |
| CG14234 | 1 | -2.22 | -0.315 | -0.839 |
| CG14234 | 2 | 0.0808 | 0.379 | 0.674 |
| CG42820 | 1 | -0.612 | 0.881 | 0.274 |
| CG42820 | 2 | -0.854 | 0.0151 | -0.358 |
| CG34190 | 1 | 0.515 | 1.26 | -0.285 |
| CG8617 | 1 | 1.16 | 0.699 | -2.84 |
| Pif1B + Pif1A | 1 | -6.11 | 0.293 | -0.148 |
| Pif1B + Pif1A | 2 | -2.75 | 0.271 | -5.23 |
| lok (loki) | 1 | -1.52 | -0.29 | -0.505 |
| lok (loki) | 2 | -0.757 | -1.32 | -2.37 |
| CG15128 | 1 | 0.421 | -0.24 | 0.192 |
| CG43779 + hbt | 1 | 0.576 | -0.325 | -0.35 |
| mle (maleless) | 1 | 0.369 | 0.19 | 0.902 |
| CG11726 | 1 | -2.03 | 0.461 | 1.24 |
| Spn75F (Serpin 75F) | 1 | -0.325 | -0.311 | -0.213 |
| CG14659 | 1 | 0.249 | 1.03 | 0.634 |
| CG15475 | 1 | 0.293 | -0.292 | 0.827 |
| CG15475 | 2 | 1.25 | 1.32 | 1.08 |
| CG13280 | 1 | -1.89 | -1.87 | -0.0922 |
| alpha-Est3 (alpha-Esterase-3) | 1 | -0.425 | 0.545 | -0.157 |
| CG13046 | 1 | -2.16 | -0.237 | -0.464 |
| Ald1 (Aldolase 1) | 1 | -0.287 | -0.389 | 0.109 |
| Ald1 (Aldolase 1) | 2 | 1.1 | 1.04 | -0.0834 |
| Ald1 (Aldolase 1) | 3 | -0.808 | -0.974 | 0.851 |
